Laboratory results as given in paper PMC11980582, “The human microbiome-derived antimicrobial lugdunin self-regulates its biosynthesis by a feed-forward mechanism”.
For at least one entry, the source does not settle the construct or the ends of the probe. For some assays here: No signal at the amounts used counts as a negative. For some assays here: Weaker means in comparison with the reference protein, sequence or condition of that experiment. For some assays here: Where a protein sequence is shown, tags need not be part of it.

Columns and labels:
[1] = system: T1, LugJ (Staphylococcus lugdunensis IVK28); test: EMSA; details: 10 mM Tris/HCl pH 7.4, 10 mM NaCl (LugJ) or 100 mM NaCl (LugR), 0.1 mg/mL BSA, 1 mM DTT, 1 mM EDTA, 10% glycerol, 30 min at 25 C, 20 ul, 5% native PAGE, recombinant protein, protein details: 8xHis (N-terminal, pET-28a derived), label: 5' DY-781 (both primers), probe letters rebuilt from the primers and the genome
T1 sequence (looked up, limits assumed): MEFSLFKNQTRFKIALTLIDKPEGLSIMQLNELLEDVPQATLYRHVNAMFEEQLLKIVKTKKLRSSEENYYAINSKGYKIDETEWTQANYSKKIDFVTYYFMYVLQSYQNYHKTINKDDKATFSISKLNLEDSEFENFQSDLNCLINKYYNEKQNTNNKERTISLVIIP

[2] = system: T1, LugJ (Staphylococcus lugdunensis IVK28); test: competition with a labelled probe; details: 10 mM Tris/HCl pH 7.4, 10 mM NaCl (LugJ) or 100 mM NaCl (LugR), 0.1 mg/mL BSA, 1 mM DTT, 1 mM EDTA, 10% glycerol, 30 min at 25 C, 20 ul, 5% native PAGE, recombinant protein, protein details: 8xHis (N-terminal, pET-28a derived)
[3] = target: T2, LugR (Staphylococcus lugdunensis IVK28) (UniProt A0A292DID1); test: competition with a labelled probe; details: 2 uM LugR, 50 or 100 ng competitor vs PlugR; 10 mM Tris/HCl pH 7.4, 10 mM NaCl (LugJ) or 100 mM NaCl (LugR), 0.1 mg/mL BSA, 1 mM DTT, 1 mM EDTA, 10% glycerol, 30 min at 25 C, 20 ul; 5% native PAGE; recombinant protein; protein details: 8xHis (N-terminal, pET-28a derived)
T2 sequence (looked up, limits assumed): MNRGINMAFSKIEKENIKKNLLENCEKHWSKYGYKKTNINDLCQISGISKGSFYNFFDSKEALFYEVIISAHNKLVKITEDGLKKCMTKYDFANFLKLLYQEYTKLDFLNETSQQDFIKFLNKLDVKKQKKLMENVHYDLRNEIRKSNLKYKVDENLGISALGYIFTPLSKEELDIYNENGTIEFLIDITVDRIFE

[4] = 2 uM LugJ, 50 or 100 ng competitor vs PlugI

CAATGTAAATGTAGTATAAAATCCACAATAGAATATTCTTATTATTAGAAGATTAGTTGACAAAATATTTTATTCTTTATCTTTAGAGATGTAATAGACACAATAAAGAAAAATCAATATTTTAAAAAATATTCGCTTAATATAGTTGACATATTAATTAAATAGATTAAGATAAAAGTGACTAGAAAAATTTATTTGGTCATAAATGAATAGGGGTATTAAT (double strand) [PlugR promoter fragment]
binding result [1]: no binding

GTACAGTAAATAATGATAATGCACATTATCATTATGAGGGTG (double strand) [PallugI scram1]
binding result [2, 4]: no binding

ACATAACACCTCACTTTATACATAATAATTGATTTTTAAATAAATGTACAGTAACATTATCATTATCAATAATGATAATGGAGGGTGAAAATG (double strand) [PlugI promoter fragment]
binding result ([1]; lugdunin 1-20 uM, dose-dependent release, almost complete at molar excess): binds more weakly

GTACAGTAACATTATCATTATCAATAATGATAATGGAGGGTG (double strand) [PallugI native]
binding result [2, 4]: binds

GATAAAAGTTAATTGTATAGCTTAATAGATTATAAATGAATAG / CTATTCATTTATTAACTATTTAGCTTTACAAATTACTTTTATC [PallugR scram2]
binding result [3]: binds more weakly

CAATGTAAATGTAGTATAAAATCCACAATAGAATATTCTTATTATTAGAAGATTAGTTGACAAAATATTTTATTCTTTATCTTTAGAGATGTAATAGACACAATAAAGAAAAATCAATATTTTAAAAAATATTCGCTTAATATAGTTGACATATTAATTAAATAGATTAAGATAAAAGTGACTAGAAAAATTTATTTGGTCATAAATGAATAGGGGTATTAAT (double strand) [cold PlugR]
binding result ([2]; cold PlugR does not affect PlugI shift, probe letters rebuilt from the primers and the genome): no binding

GTACAGTAAAAGTTTAAGTTTCAAAAGTTAAATTAGAGGGTG / CACCCTCAAGTTTAAGTTTTGAAAGTTAAATTATTACTGTAC [PallugI scram2]
binding result [2, 4]: no binding

GATAAAAGTTTATTTGGTCATGACTAGAAAAATAAATGAATAG (double strand) [PallugR scram1]
binding result [3]: binds more weakly
